Pooled drug test results. Numbers come from NIAID ChemDB, via PubChem.

Shared fields: whole-cell or culture tests

Zone: diameter of growth inhibition. MIC50, MIC90 and the like: level of inhibition, or share of isolates inhibited. ECn is the concentration giving n% inhibition of infection, replication or growth. An empty or dashed field is not shown. Conditions beyond the fields shown may differ between rows.

smiles | organism | strain or isolate | method | measure | dose | value
Cc1c(N2CCC(CN)C2)c(F)cn2c(=O)c(C(=O)O)cc(C3CC3)c12.Cl | Candida albicans | CCH442 | - | MIC | - | >100 µg/mL
COc1cc(C2CC(=O)c3c(O)cc(O)cc3O2)ccc1OCC=C(C)C | Candida dubliniensis | - | agar diffusion / agar | zone | 100 µg/mL | 0 mm
COc1cc(C[C@H](C)[C@H](C)Cc2ccc(O)c(O)c2)ccc1O | Candida albicans | CCC 127-2000 | broth dilution | MIC80 | - | 31.25 µg/mL
Cc1c(N2CCC(N3CCCCC3)CC2)c(F)cn2c(=O)c(C(=O)O)cc(C3CC3)c12 | Candida albicans | CCH442 | - | MIC | - | >100 µg/mL
O=C(O)/C=C/c1ccccc1 | Candida parapsilosis | ATCC 22019 | broth dilution / turbidity | EC50 | - | 0.18 µM
COc1ccc([Se][Se]c2ccc(OC)cc2)cc1 | Candida dubliniensis | - | broth dilution | MIC | - | 8 µg/mL
O=C(O)c1ccccc1O | Candida parapsilosis | ATCC 22019 | broth dilution / turbidity | EC50 | - | 0.17 µM
CC(=O)N1CCN(c2ccc(OC[C@H]3CO[C@](Cn4ccnc4)(c4ccc(Cl)cc4Cl)O3)cc2)CC1 | Candida parapsilosis | 52 clinical isolates | broth dilution | MIC50 | - | <0.031 µg/mL
CC(=O)N1CCN(c2ccc(OC[C@H]3CO[C@](Cn4ccnc4)(c4ccc(Cl)cc4Cl)O3)cc2)CC1 | Candida albicans | Isogenic isolate 8 (25X) | - | MIC | - | ≤0.008 µg/mL
Cc1c(N2CCCC3(C2)OCCO3)c(F)cn2c(=O)c(C(=O)O)cc(C3CC3)c12 | Candida albicans | CCH442 | - | MIC | - | >100 µg/mL
O=c1c(O)c(-c2ccc(O)c(O)c2)oc2cc(O)cc(O)c12 | Candida tropicalis | Clinical isolate 6 | broth dilution | MIC50 | - | >128 µg/mL
C[C@@H]1[C@H](O)[C@@H](C)/C=C/C=C/CC/C=C/C=C/C=C/C=C/C(O[C@H]2O[C@H](C)[C@@H](O)[C@H](N)[C@@H]2O)CC2O[C@](O)(CC(O)C(O)CCC(O)CC(O)CC(O)CC(=O)O[C@H]1C)CC(O)C2C(=O)O | Candida rugosa | CBS 12 | broth dilution | MIC | - | 1.9 µg/mL
Cc1c(N2CC[C@@H]([C@H](C)N)C2)c(F)cn2c(=O)c(C(=O)O)cc(C3CC3)c12.Cl | Candida albicans | CCH442 | - | MIC | - | >100 µg/mL
C=CCc1ccc(O)c(-c2ccc(O)c(CC=C)c2)c1 | Candida albicans | YL 370 | broth dilution | MIC | - | 128 µg/mL
c1ccc([Se][Se]c2ccccc2)cc1 | Candida guilliermondii | - | broth dilution | MFC | - | >64 µg/mL
C[C@H]1[C@H](O)[C@@H](C)/C=C/C=C/C=C/C=C/C=C/C=C/C=C/[C@H](O[C@@H]2O[C@H](C)[C@@H](O)[C@H](N)[C@@H]2O)C[C@@H]2O[C@](O)(C[C@@H](O)C[C@@H](O)CC[C@H](O)[C@@H](O)C[C@@H](O)CC(=O)O[C@H]1C)C[C@H](O)[C@H]2C(=O)O | Candida glabrata | 77 isolates | - | MIC50 | - | 1 µg/mL
C[C@@H]1[C@H](O)[C@@H](C)/C=C/C=C/CC/C=C/C=C/C=C/C=C/C(O[C@H]2O[C@H](C)[C@@H](O)[C@H](N)[C@@H]2O)CC2O[C@](O)(CC(O)C(O)CCC(O)CC(O)CC(O)CC(=O)O[C@H]1C)CC(O)C2C(=O)O | Candida albicans | ICM 12 | broth dilution | MFC100 | - | 64 µg/mL
C[C@@H]1[C@H](O)[C@@H](C)/C=C/C=C/CC/C=C/C=C/C=C/C=C/C(O[C@H]2O[C@H](C)[C@@H](O)[C@H](N)[C@@H]2O)CC2O[C@](O)(CC(O)C(O)CCC(O)CC(O)CC(O)CC(=O)O[C@H]1C)CC(O)C2C(=O)O | Candida spp. | Candida inconspicua | agar diffusion / agar | zone | 100 µg/mL | 0 mm
Nc1nc(=O)n([C@H]2CS[C@@H](CO)O2)cc1F | Candida krusei | 17 isolates | - | MIC50 | - | 32 µg/mL
CCC(C)n1ncn(-c2ccc(N3CCN(c4ccc(OC[C@H]5CO[C@](Cn6cncn6)(c6ccc(Cl)cc6Cl)O5)cc4)CC3)cc2)c1=O | Candida parapsilosis | 52 clinical isolates | broth dilution | MIC50 | - | 0.062 µg/mL
CC(=O)N1CCN(c2ccc(OC[C@H]3CO[C@](Cn4ccnc4)(c4ccc(Cl)cc4Cl)O3)cc2)CC1 | Candida spp. | Clinical isolates | - | MIC | - | 32 µg/mL
CC(C)CCOc1ccc(C2CC(=O)c3c(O)cc(O)cc3O2)cc1 | Candida spp. | Candida inconspicua | agar diffusion / agar | zone | 100 µg/mL | 0 mm
O=Cc1cc(O)ccc1O | Candida lusitaniae | PYCC 2705 | broth dilution / turbidity | EC50 | - | 0.35 µM
CCCCCCCCC[C@@H](O)[C@H](C)N | Candida parapsilosis | MTCC 1744 | - | MIC | - | 4.9 µM

The first 3 rows once more:

smiles	organism	strain or isolate	method	measure	dose	value
Cc1c(N2CCC(CN)C2)c(F)cn2c(=O)c(C(=O)O)cc(C3CC3)c12.Cl	Candida albicans	CCH442	-	MIC	-	>100 µg/mL
COc1cc(C2CC(=O)c3c(O)cc(O)cc3O2)ccc1OCC=C(C)C	Candida dubliniensis	-	agar diffusion / agar	zone	100 µg/mL	0 mm
COc1cc(C[C@H](C)[C@H](C)Cc2ccc(O)c(O)c2)ccc1O	Candida albicans	CCC 127-2000	broth dilution	MIC80	-	31.25 µg/mL